{"source": "patent US20150125509A1", "about": "“TREATMENT OF FISH POPULATIONS WITH LUFENURON” (priority 2012, published 2015)", "key": {"[1]": {"assay": "Example 1: fish weight of treated groups", "type": "in vivo, Atlantic Salmon, S. salar", "conditions": "sea water"}, "[2]": {"assay": "Example 2: fish weight of treated groups", "type": "in vivo, Atlantic salmon (Salmo salar)", "conditions": "fresh water"}}}
{"smiles": "O=C(NC(=O)c1c(F)cccc1F)Nc1cc(Cl)c(OC(F)(F)C(F)C(F)(F)F)cc1Cl", "note": "(stereo not drawn) [lufenuron, N-{[2,5-Dichlor-4-(1,1,2,3,3,3-hexafluorpropoxy)phenyl]carbamoyl}-2,6-difluorbenzamid]", "values": [{"measurement": "Weight", "setting": "[1]; 3 mg/kg/day 7 days in-feed, 1 month post-treatment", "value": 409, "unit": "g"}, {"measurement": "Weight", "setting": "[1]; 3 mg/kg/day 7 days in-feed, 1 week post-treatment", "value": 283, "unit": "g"}, {"measurement": "Weight", "setting": "[1]; 3 mg/kg/day 7 days in-feed, 2 month post-treatment", "value": 600, "unit": "g"}, {"measurement": "Weight", "setting": "[1]; 3 mg/kg/day 7 days in-feed, 3 month post-treatment", "value": 915, "unit": "g"}, {"measurement": "Weight", "setting": "[1]; 3 mg/kg/day 7 days in-feed, 5 month post-treatment", "value": 1410, "unit": "g"}, {"measurement": "Weight", "setting": "[1]; 3 mg/kg/day 7 days in-feed, 6 month post-treatment", "value": 1797, "unit": "g"}, {"measurement": "Weight", "setting": "[1]; 3 mg/kg/day 7 days in-feed, 1 day post-treatment", "value": 263, "unit": "g"}, {"measurement": "Weight", "setting": "[1]; 5 mg/kg/day 7 days in-feed, 1 month post-treatment", "value": 407, "unit": "g"}, {"measurement": "Weight", "setting": "[1]; 5 mg/kg/day 7 days in-feed, 1 week post-treatment", "value": 294, "unit": "g"}, {"measurement": "Weight", "setting": "[1]; 5 mg/kg/day 7 days in-feed, 2 month post-treatment", "value": 701, "unit": "g"}, {"measurement": "Weight", "setting": "[1]; 5 mg/kg/day 7 days in-feed, 3 month post-treatment", "value": 1000, "unit": "g"}, {"measurement": "Weight", "setting": "[1]; 5 mg/kg/day 7 days in-feed, 4 month post-treatment", "value": 1241, "unit": "g"}, {"measurement": "Weight", "setting": "[1]; 5 mg/kg/day 7 days in-feed, 5 month post-treatment", "value": 1593, "unit": "g"}, {"measurement": "Weight", "setting": "[1]; 5 mg/kg/day 7 days in-feed, 6 month post-treatment", "value": 1655, "unit": "g"}, {"measurement": "Weight", "setting": "[1]; 5 mg/kg/day 7 days in-feed, 7 month post-treatment", "value": 1995, "unit": "g"}, {"measurement": "Weight", "setting": "[1]; 5 mg/kg/day 7 days in-feed, 8 month post-treatment", "value": 1980, "unit": "g"}, {"measurement": "Weight", "setting": "[1]; 5 mg/kg/day 7 days in-feed, 9 month post-treatment", "value": 2290, "unit": "g"}, {"measurement": "Weight", "setting": "[1]; 5 mg/kg/day 7 days in-feed, 1 day post-treatment", "value": 253, "unit": "g"}, {"measurement": "Weight", "setting": "[1]; 10 mg/kg/day 7 days in-feed, 1 month post-treatment", "value": 423, "unit": "g"}, {"measurement": "Weight", "setting": "[1]; 10 mg/kg/day 7 days in-feed, 1 week post-treatment", "value": 296, "unit": "g"}, {"measurement": "Weight", "setting": "[1]; 10 mg/kg/day 7 days in-feed, 2 month post-treatment", "value": 644, "unit": "g"}, {"measurement": "Weight", "setting": "[1]; 10 mg/kg/day 7 days in-feed, 3 month post-treatment", "value": 974, "unit": "g"}, {"measurement": "Weight", "setting": "[1]; 10 mg/kg/day 7 days in-feed, 4 month post-treatment", "value": 1161, "unit": "g"}, {"measurement": "Weight", "setting": "[1]; 10 mg/kg/day 7 days in-feed, 5 month post-treatment", "value": 1440, "unit": "g"}, {"measurement": "Weight", "setting": "[1]; 10 mg/kg/day 7 days in-feed, 6 month post-treatment", "value": 1628, "unit": "g"}, {"measurement": "Weight", "setting": "[1]; 10 mg/kg/day 7 days in-feed, 7 month post-treatment", "value": 1905, "unit": "g"}, {"measurement": "Weight", "setting": "[1]; 10 mg/kg/day 7 days in-feed, 8 month post-treatment", "value": 2091, "unit": "g"}, {"measurement": "Weight", "setting": "[1]; 10 mg/kg/day 7 days in-feed, 9 month post-treatment", "value": 2065, "unit": "g"}, {"measurement": "Weight", "setting": "[1]; 10 mg/kg/day 7 days in-feed, 1 day post-treatment", "value": 256, "unit": "g"}, {"measurement": "Weight", "setting": "[2]; 1 mg/kg/day 7 days in-feed, 5 days post sea transfer", "value": 109, "unit": "g"}, {"measurement": "Weight", "setting": "[2]; 1 mg/kg/day 7 days in-feed, 15 days post sea transfer", "value": 98, "unit": "g"}, {"measurement": "Weight", "setting": "[2]; 1 mg/kg/day 7 days in-feed, 42 days post sea transfer", "value": 135, "unit": "g"}, {"measurement": "Weight", "setting": "[2]; 1 mg/kg/day 7 days in-feed, 76 days post sea transfer", "value": 196, "unit": "g"}, {"measurement": "Weight", "setting": "[2]; 1 mg/kg/day 7 days in-feed, 98 days post sea transfer", "value": 258, "unit": "g"}, {"measurement": "Weight", "setting": "[2]; 1 mg/kg/day 7 days in-feed, 125 days post sea transfer", "value": 303, "unit": "g"}, {"measurement": "Weight", "setting": "[2]; 1 mg/kg/day 7 days in-feed, 154 days post sea transfer", "value": 358, "unit": "g"}, {"measurement": "Weight", "setting": "[2]; 5 mg/kg/day 7 days in-feed, 5 days post sea transfer", "value": 106, "unit": "g"}, {"measurement": "Weight", "setting": "[2]; 5 mg/kg/day 7 days in-feed, 15 days post sea transfer", "value": 107, "unit": "g"}, {"measurement": "Weight", "setting": "[2]; 5 mg/kg/day 7 days in-feed, 76 days post sea transfer", "value": 201, "unit": "g"}, {"measurement": "Weight", "setting": "[2]; 5 mg/kg/day 7 days in-feed, 98 days post sea transfer", "value": 277, "unit": "g"}, {"measurement": "Weight", "setting": "[2]; 5 mg/kg/day 7 days in-feed, 125 days post sea transfer", "value": 318, "unit": "g"}, {"measurement": "Weight", "setting": "[2]; 5 mg/kg/day 7 days in-feed, 154 days post sea transfer", "value": 371, "unit": "g"}, {"measurement": "Weight", "setting": "[2]; 10 mg/kg/day 7 days in-feed, 5 days post sea transfer", "value": 110, "unit": "g"}, {"measurement": "Weight", "setting": "[2]; 10 mg/kg/day 7 days in-feed, 15 days post sea transfer", "value": 115, "unit": "g"}, {"measurement": "Weight", "setting": "[2]; 10 mg/kg/day 7 days in-feed, 76 days post sea transfer", "value": 208, "unit": "g"}, {"measurement": "Weight", "setting": "[2]; 10 mg/kg/day 7 days in-feed, 98 days post sea transfer", "value": 291, "unit": "g"}, {"measurement": "Weight", "setting": "[2]; 10 mg/kg/day 7 days in-feed, 125 days post sea transfer", "value": 316, "unit": "g"}, {"measurement": "Weight", "setting": "[2]; 10 mg/kg/day 7 days in-feed, 154 days post sea transfer", "value": 384, "unit": "g"}]}
